Laboratory results taken from the supplement of paper PMC11732987, “Enantioselective OTUD7B fragment discovery through chemoproteomics screening and high-throughput optimisation” (Communications Chemistry, 2025).
This is a selection; strong and weak results do not stand in their true shares.

Sequences of proteins named here, by UniProt entry; tags and fusion partners are left off.
UniProt P09936, whole entry, looked up: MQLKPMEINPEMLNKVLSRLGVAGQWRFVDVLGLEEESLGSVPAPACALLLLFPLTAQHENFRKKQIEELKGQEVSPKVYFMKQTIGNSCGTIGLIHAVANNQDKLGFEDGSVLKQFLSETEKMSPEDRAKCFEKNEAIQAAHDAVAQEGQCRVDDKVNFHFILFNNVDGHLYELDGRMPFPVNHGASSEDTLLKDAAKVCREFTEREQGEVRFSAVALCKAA
UniProt Q9NUU6, whole entry, looked up: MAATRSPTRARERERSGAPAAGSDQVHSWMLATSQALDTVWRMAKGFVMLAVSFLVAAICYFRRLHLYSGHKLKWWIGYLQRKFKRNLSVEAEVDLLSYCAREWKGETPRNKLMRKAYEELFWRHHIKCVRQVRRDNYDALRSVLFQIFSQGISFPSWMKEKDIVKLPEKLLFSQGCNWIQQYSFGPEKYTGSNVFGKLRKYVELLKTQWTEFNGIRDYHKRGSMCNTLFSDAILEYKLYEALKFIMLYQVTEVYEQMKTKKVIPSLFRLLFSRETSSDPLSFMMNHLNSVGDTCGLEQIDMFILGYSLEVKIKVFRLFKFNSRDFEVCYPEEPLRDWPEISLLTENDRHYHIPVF
UniProt Q92560, whole entry, looked up: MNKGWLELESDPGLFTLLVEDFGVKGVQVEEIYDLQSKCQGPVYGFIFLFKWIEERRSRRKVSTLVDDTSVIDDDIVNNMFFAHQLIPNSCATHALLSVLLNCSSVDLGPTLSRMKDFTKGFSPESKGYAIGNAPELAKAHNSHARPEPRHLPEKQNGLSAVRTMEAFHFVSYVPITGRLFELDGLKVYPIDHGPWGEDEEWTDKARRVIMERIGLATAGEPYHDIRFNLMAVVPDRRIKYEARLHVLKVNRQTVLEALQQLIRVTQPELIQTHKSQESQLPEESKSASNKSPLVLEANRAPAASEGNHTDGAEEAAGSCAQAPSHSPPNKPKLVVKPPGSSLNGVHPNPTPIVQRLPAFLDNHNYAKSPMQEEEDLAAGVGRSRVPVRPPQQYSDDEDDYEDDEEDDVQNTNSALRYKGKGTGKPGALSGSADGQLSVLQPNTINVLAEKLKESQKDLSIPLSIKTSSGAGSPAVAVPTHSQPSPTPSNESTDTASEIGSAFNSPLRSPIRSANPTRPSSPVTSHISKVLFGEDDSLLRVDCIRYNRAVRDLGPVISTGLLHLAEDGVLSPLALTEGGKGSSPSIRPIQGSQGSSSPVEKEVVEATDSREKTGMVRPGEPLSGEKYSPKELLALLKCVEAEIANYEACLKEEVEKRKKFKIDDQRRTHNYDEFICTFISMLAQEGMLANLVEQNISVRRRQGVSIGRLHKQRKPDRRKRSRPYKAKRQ
UniProt Q96G74, whole entry, looked up: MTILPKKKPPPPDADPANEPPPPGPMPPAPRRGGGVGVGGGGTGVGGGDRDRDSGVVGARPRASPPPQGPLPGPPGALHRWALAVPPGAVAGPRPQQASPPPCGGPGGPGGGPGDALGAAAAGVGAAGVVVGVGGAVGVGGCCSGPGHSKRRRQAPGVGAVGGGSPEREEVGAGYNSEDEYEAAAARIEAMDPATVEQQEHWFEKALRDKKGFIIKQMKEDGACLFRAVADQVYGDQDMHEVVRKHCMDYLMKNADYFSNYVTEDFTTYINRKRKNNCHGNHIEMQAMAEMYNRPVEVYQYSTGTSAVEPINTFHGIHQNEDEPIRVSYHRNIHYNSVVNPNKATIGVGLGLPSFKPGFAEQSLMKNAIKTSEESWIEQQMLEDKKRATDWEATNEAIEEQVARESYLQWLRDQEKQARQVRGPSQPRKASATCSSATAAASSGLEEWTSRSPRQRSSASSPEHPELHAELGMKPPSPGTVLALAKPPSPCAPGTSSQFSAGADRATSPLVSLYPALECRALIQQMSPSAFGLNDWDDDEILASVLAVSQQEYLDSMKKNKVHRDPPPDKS
UniProt Q96K76, whole entry, looked up: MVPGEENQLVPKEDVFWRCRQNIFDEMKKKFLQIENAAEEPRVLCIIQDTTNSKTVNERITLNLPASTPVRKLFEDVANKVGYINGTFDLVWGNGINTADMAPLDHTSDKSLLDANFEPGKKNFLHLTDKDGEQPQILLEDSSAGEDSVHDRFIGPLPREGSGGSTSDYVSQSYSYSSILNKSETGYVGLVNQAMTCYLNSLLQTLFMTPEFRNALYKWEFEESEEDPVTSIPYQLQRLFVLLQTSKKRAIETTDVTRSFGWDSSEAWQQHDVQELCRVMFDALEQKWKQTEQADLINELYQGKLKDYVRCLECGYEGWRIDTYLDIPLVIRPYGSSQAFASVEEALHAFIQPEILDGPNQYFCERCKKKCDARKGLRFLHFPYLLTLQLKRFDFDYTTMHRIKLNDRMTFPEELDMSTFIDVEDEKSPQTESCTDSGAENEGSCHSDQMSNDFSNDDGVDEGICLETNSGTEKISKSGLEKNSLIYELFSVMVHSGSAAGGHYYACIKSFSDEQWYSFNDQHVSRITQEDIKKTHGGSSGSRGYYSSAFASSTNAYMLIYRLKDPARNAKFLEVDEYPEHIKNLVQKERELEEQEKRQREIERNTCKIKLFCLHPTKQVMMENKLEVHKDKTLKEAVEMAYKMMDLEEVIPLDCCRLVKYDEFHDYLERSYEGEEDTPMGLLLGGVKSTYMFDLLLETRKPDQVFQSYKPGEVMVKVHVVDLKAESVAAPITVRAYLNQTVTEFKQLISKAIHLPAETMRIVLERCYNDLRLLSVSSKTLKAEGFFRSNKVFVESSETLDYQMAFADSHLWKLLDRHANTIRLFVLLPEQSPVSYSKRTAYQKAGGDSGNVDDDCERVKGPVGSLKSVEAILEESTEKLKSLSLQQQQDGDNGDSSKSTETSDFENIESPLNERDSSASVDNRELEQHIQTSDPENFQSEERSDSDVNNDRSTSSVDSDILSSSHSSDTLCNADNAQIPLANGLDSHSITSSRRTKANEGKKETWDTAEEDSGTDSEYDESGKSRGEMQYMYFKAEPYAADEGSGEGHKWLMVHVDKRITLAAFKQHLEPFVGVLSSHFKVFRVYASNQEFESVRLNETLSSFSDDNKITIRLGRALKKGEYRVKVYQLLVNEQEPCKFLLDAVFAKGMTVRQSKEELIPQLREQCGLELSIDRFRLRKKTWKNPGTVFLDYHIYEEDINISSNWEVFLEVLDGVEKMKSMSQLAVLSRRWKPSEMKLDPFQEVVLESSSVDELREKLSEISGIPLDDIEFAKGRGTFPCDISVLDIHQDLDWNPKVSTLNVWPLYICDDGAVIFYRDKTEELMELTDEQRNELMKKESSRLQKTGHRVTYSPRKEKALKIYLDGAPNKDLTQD
UniProt P40818, whole entry, looked up: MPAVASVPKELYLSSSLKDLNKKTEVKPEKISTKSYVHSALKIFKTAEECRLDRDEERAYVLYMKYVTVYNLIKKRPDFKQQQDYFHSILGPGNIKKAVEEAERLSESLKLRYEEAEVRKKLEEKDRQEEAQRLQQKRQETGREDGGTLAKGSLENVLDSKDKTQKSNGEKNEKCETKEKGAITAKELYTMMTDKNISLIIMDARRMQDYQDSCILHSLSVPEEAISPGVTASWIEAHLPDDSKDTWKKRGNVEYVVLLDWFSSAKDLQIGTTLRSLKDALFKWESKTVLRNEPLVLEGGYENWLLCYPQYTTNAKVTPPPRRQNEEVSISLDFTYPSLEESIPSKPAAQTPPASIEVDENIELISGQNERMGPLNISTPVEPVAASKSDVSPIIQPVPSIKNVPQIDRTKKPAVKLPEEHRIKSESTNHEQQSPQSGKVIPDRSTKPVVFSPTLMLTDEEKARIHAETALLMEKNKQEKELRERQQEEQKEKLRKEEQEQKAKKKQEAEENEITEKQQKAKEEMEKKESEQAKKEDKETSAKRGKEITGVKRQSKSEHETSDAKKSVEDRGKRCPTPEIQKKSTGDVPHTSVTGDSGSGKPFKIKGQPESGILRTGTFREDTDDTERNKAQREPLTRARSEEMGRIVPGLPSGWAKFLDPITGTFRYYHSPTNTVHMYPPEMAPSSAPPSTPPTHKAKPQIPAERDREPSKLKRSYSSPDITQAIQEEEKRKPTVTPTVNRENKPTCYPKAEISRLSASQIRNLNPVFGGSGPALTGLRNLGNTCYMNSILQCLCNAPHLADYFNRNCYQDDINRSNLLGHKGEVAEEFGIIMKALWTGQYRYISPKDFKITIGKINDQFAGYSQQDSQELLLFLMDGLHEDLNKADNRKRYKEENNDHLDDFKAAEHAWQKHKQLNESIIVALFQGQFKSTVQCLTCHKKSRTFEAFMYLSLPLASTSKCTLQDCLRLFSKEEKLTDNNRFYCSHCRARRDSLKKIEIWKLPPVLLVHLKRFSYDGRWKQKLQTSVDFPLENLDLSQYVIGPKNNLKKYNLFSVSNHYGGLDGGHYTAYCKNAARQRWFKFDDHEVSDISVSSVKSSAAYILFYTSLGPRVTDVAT
UniProt Q93009, whole entry, looked up: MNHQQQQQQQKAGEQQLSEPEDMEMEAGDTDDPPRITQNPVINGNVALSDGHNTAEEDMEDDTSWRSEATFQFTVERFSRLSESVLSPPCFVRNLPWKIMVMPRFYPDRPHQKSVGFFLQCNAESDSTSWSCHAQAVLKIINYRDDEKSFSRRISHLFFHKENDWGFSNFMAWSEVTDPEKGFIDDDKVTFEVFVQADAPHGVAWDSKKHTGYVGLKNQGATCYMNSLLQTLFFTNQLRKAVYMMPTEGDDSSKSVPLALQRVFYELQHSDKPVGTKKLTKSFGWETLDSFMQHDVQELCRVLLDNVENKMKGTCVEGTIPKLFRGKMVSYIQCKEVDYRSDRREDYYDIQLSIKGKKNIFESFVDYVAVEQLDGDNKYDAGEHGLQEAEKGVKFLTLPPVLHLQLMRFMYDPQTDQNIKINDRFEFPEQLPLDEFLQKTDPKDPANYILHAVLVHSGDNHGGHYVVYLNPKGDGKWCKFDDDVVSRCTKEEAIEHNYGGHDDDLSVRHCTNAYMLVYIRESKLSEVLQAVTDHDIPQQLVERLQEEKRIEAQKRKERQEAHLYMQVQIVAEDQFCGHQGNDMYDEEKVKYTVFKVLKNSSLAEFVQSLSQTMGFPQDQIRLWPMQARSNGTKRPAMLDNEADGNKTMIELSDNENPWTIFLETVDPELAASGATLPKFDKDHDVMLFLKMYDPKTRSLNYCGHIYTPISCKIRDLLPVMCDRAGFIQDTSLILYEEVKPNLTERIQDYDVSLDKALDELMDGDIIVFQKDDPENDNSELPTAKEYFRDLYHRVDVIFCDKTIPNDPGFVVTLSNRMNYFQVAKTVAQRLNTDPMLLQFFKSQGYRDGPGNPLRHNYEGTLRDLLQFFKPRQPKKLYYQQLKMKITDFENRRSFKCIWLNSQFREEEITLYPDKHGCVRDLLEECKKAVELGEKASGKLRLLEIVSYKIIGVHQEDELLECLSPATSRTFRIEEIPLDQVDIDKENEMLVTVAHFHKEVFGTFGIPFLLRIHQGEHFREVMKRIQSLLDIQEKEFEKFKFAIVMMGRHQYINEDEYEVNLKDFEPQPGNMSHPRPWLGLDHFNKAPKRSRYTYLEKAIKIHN
UniProt P62068, whole entry, looked up: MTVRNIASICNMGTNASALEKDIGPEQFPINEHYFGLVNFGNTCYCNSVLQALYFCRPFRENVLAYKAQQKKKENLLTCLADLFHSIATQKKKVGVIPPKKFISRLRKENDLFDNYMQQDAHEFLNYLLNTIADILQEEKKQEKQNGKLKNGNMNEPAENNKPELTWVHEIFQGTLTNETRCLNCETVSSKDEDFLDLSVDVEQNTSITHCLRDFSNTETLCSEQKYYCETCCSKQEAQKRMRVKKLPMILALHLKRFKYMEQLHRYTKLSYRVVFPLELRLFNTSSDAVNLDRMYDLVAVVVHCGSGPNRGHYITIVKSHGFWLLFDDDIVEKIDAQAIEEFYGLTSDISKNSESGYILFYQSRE

compound: CN(C)C1(CNC(=O)CCl)CCCCC1; assay: log2 ratio of Biotin-Ahx-Ub-VS probe labelling (fragment/DMSO); higher = less target engagement (more negative = stronger competition), active = hit call of the paper (q ≤ 0.05, log2 ratio ≤ -1); conditions: compound concentration: 200 uM; treatment time: 3 h
Method: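 Competitive ABPP in HEK293T cell lysate. Lysates were treated with each chloroacetamide fragment at 200 µM for 3 h, then with Biotin-Ahx-Ub-VS (0.5 µM, 1 h), NeutrAvidin-enriched and analysed by diaPASEF LC-MS/MS. Protein LFQ was median-normalised; average log2 ratio is fragment/DMSO from an unpaired t-test (n=3 treated, n=44 DMSO). Hits: q ≤ 0.05, log2 ratio ≤ -1, unique peptides ≥ 2.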

| Target | log2 ratio of Biotin-Ahx-Ub-VS probe labelling |
| --- | --- |
| UniProt P09936 | active: -1.37 |
| UniProt Q9NUU6 | inactive: -0.0133 |
| UniProt Q9UHP3 | inactive: -0.472 |
| UniProt Q92560 | active: -1.41 |
| UniProt Q96G74 | inactive: -0.425 |
| UniProt Q96K76 | inactive: -0.209 |
| UniProt P40818 | inactive: -0.404 |
| UniProt Q93009 | inactive: -0.341 |
| UniProt P62068 | inactive: -0.00152 |
